Measured values taken from paper PMC4029850 (Journal of immunological methods, 2014).
“And” between values parts separate entries of the source, which are not always exact repeats. Identical values can stand only once.

Biological target: Soluble recombinant MHCII molecule DR1 (HLA-DRA*01:01;DRB1*01:01) (human)
Assay: fluorescence polarisation

Influenza hemagglutinin peptide HA306-318
IC50: 74 nM and 79 nM
